Results of unrelated studies side by side (data: NIAID ChemDB).

Shared fields: whole-cell or culture tests; species: Mycobacterium tuberculosis

Rows are shuffled and stem from different studies. ECn is the concentration giving n% inhibition of infection, replication or growth. MIC50, MIC90 and the like: level of inhibition, or share of isolates inhibited. An empty or dashed field is not shown. Inhibition is in % at the dose shown (toxicity tests: loss of growth or viability). MIC bound: limit read from a one-dose screen.

| smiles | strain | dose | endpoint | cells | read by | result |
|---|---|---|---|---|---|---|
| COC(=O)c1ccc(N2C(=O)c3cccc([N+](=O)[O-])c3C2=O)cc1O | H37Rv | - | MIC50 | - | resazurin | >50 µg/mL |
| C/C=C1/CN2[C@H]3C[C@@]45c6ccccc6N(C)[C@H]4[C@@H]2C[C@@H]1[C@@H]3[C@H]5O | H37Rv | 12.8 µg/mL | inhibition | - | BACTEC | 13% |
| O=c1cc(-c2ccccc2)oc2ccc(Br)cc12 | H37Rv | 12.5 µg/mL | inhibition | - | - | 8% |
| NNc1ccc2nnc(Cl)n2n1 | H37Rv | - | MIC bound | - | BACTEC | >12.5 µg/mL |
| O=C(CSc1nnc(-c2ccc3ncccc3c2)o1)Nc1ccc(F)cc1 | H37Rv | - | MIC | - | agar | 25 µg/mL |
| CCCCCCCCOC(=O)c1cnccn1 | KK11-20 | - | MBC | - | - | >200 µg/mL |
| O[C@H](c1cc(C(F)(F)F)nc2c(C(F)(F)F)cccc12)[C@H]1CCCCN1 | FQR-M70 | - | MIC | - | - | 5 µg/mL |
| CCSCC(=O)SCC1CS1 | H37Rv | - | MIC | - | - | 6.25 µg/mL |
| C=C1C(OC(=O)C(C)C)C(O)C(=O)C(C)(C)/C=C\C(C)C(=O)C2(O)CC(C)C(OC(=O)CC)C2C1OC(=O)c1ccccc1 | H37Rv | 12.5 µg/mL | inhibition | - | BACTEC | 24% |
| Cc1ccc(/C=N/N2CCN(c3cc4c(cc3F)c(=O)c(C(=O)O)cn4C3CC3)CC2)cc1 | H37Rv | - | MIC90 | - | fluorescence | 0.91 µM |
| CCOc1ccc(NC(=O)CSc2nnc(-c3ccc4ncccc4c3)o2)cc1 | H37Rv | - | MIC | - | agar | 12.5 µg/mL |
| Cc1ccc(C(=O)N=Nc2c(O)[nH]c3ccccc23)cc1 | H37Ra | - | MIC50 | - | resazurin | >50 µg/mL |
| COC1=CC(=O)c2c(O)c3c(c(O)c2C1=O)C=C(C)OC3O | H37Rv | - | MIC bound | - | BACTEC | ≤12.5 µg/mL |
| O=C(N=Nc1c(O)[nH]c2ccccc12)c1cccnc1 | H37Ra | - | MIC50 | - | resazurin | >50 µg/mL |
| NC(=O)C(=O)NNc1cccc(Cl)n1 | H37Rv | - | MIC bound | - | BACTEC | >12.5 µg/mL |
| CCCN(CCC)c1cc2c(O)c3c(O)c(C)c4c(c13)C(=O)[C@@](C)(O/C=C/[C@H](OC)[C@@H](C)[C@@H](OC(C)=O)[C@H](C)[C@H](O)[C@H](C)[C@@H](O)[C@@H](C)/C=C/C=C(/C)C(=O)N2)O4 | H37Rv | - | MIC | - | - | 0.2 µg/mL |
| Cc1ccc(S(=O)(=O)C(=S)N(C)N(C)C)cc1 | H37Rv | - | MIC bound | - | BACTEC | ≤128 µg/mL |
| O=c1cc(-c2ccc(O)cc2)oc2ccccc12 | H37Rv | - | MIC | - | - | >12.5 µg/mL |
| O=C1C=C(Nc2cnccn2)c2ccccc2C1=O | H37Rv | - | MIC | VERO | resazurin | 1.56 µg/mL |
| Cc1ccc2nc(C)c(C(=O)NCc3ccc4c(c3)CCO4)n2c1 | H37Rv | - | MIC90 | - | resazurin | <2 µM |
| CCN(CC)c1cc2c(O)c3c(O)c(C)c4c(c13)C(=O)[C@@](C)(O/C=C/[C@H](OC)[C@@H](C)[C@@H](OC(C)=O)[C@H](C)[C@H](O)[C@H](C)[C@@H](O)[C@@H](C)/C=C/C=C(/C)C(=O)N2)O4 | H37Rv | - | MIC | - | - | 0.05 µg/mL |
| O=C(CSCc1ccccc1)OCC(S)CS | H37Rv | - | MIC | - | - | 50 µg/mL |
| O=C(N=Nc1c(O)[nH]c2ccc([N+](=O)[O-])cc12)c1cccc([N+](=O)[O-])c1 | H37Rv | - | MIC50 | - | resazurin | >50 µg/mL |
| O=C(Nc1ccc(Cl)cc1)C1(c2cccs2)CCOCC1 | CDC1551 | - | EC50 | - | turbidity | 22 µM |
| O=C(SCC1CS1)C(Cl)Cl | H37Rv | - | MIC | - | - | 25 µg/mL |
| O=C(NCCc1ccc(Cl)cc1)C1(c2cccs2)CCOCC1 | CDC1551 | - | EC50 | - | turbidity | 6.4 µM |
| Cc1ccn2c(C(=O)NCc3ccc(N4CCC(c5ccc(C(F)(F)F)cc5)CC4)nc3)c(C)nc2c1 | H37Rv | - | MIC90 | - | resazurin | <2 µM |
| COC(=O)C1=C(C)NC(Nc2ccc(F)c(Br)c2)=NC1c1ccc(Cl)cc1 | H37Rv | - | MIC | - | agar | 8 µg/mL |
| O=C(O)c1ccc(N2C(=O)c3cccc([N+](=O)[O-])c3C2=O)cc1O | H37Ra | - | MIC50 | - | resazurin | 0.39 µg/mL |
| C[n+]1cccc(C(N)=O)c1.[I-] | H37Rv | - | MIC bound | - | BACTEC | >12.5 µg/mL |
| O=C1NC(=S)N/C1=C/c1ccc2ccccc2c1 | H37Rv | - | EC50 | - | - | <6.25 µg/mL |
| O=C(Nc1cc(Cl)cc(Cl)c1)C1(c2cccs2)CCOCC1 | CDC1551 | - | EC50 | - | turbidity | 200 µM |
| O=C(O)c1cn(C2CC2)c2cc(N3CCN(/N=C/c4cccc(F)c4)CC3)c(F)cc2c1=O | H37Rv | - | MIC90 | - | fluorescence | 1.45 µM |
| CC1COCC(C)N1C(=O)c1cccnc1 | H37Rv | - | MIC bound | - | resazurin | >6.25 µg/mL |
| COc1ccc(/C=C/C(=O)c2ccc(OC)cc2O)cc1 | H37Rv | - | MIC | - | - | >12.5 µg/mL |
| O=C1C2=C(c3ccccc31)C(c1ccc(Cl)cc1)N1C(=O)CCSC1=N2 | H37Rv | 12.5 µg/mL | inhibition | - | BACTEC | 0% |
| Cc1ccc(NC(=O)CSc2nnc(-c3ccc4ncccc4c3)o2)cc1 | H37Rv | - | MIC | - | agar | 250 µg/mL |
| CCc1nc2cc(C)ccn2c1C(=O)NCc1ccc(S(F)(F)(F)(F)F)cc1 | H37Rv | - | MIC90 | - | resazurin | <2 µM |
| O=C(SCC1CS1)C(c1ccccc1)c1ccccc1 | H37Rv | - | MIC | - | - | >50 µg/mL |
| CCc1nc2sc(C)cn2c1C(=O)NCc1ccc(N2CCC(c3ccc(OC(F)(F)F)cc3)CC2)cc1 | H37Rv | - | MIC90 | - | resazurin | <2 µM |
| NNC(=O)c1ccncc1 | TLM-resistant | - | MIC | - | - | 0.1 µg/mL |
| COc1cc(-c2[o+]c3cc(O)cc(O[C@@H]4O[C@H](CO)[C@@H](O)C(O)[C@H]4O)c3cc2O[C@H]2O[C@@H](CO)[C@H](O)[C@@H](O)[C@@H]2O)cc(OC)c1O | H37Rv | - | MIC | - | BACTEC | ≥12.5 µg/mL |
| O=C(OCC(S)CS)c1cccc2ccccc12 | H37Rv | - | MIC | - | - | 50 µg/mL |
| COC(=O)C1=C(C)NC(Nc2cc(O)cc(Cl)c2)=NC1c1ccc(Cl)cc1 | MDR-TB | - | MIC | - | agar | 32 µg/mL |
| Cc1ccn2c(C(=O)NCc3ccc(N4CCN(c5ccc(S(F)(F)(F)(F)F)cc5)CC4)c(F)c3)c(C)nc2c1 | H37Rv | - | MIC90 | - | resazurin | <2 µM |
| CO[C@H]1/C=C/O[C@@]2(C)Oc3c(C)c(O)c4c(O)c(c(/C=N/N5C(C)CN(Cc6ccccc6)CC5C)c(O)c4c3C2=O)NC(=O)/C(C)=C\C=C\[C@H](C)[C@H](O)[C@@H](C)[C@@H](O)[C@@H](C)[C@H](OC(C)=O)[C@@H]1C | MDR-TB | - | MIC | - | agar | 16 µg/mL |
| Cc1ccn2c(C(=O)NCc3ccc(N4CCC(Oc5cccc(C(F)(F)F)c5)CC4)c(F)c3)c(C)nc2c1 | H37Rv | - | MIC90 | - | resazurin | <2 µM |
| NC(=S)N=Nc1c(O)cc(Nc2ccc(Cl)cc2Cl)c2ccccc12 | H37Rv | - | MIC bound | - | BACTEC | ≤12.5 µg/mL |
| COc1ccc2c(=O)cc(-c3cccc([N+](=O)[O-])c3)oc2c1 | H37Rv | 12.5 µg/mL | inhibition | - | - | 0% |
| O=C1NC(=O)/C(=C/c2cccc(OCc3ccccc3)c2)N1 | H37Rv | - | EC50 | - | - | <6.25 µg/mL |
| CC(=O)Oc1c(C)c(O)c(C(C)=O)c2c1C1(C)C(=O)C(C(C)=O)=C(O)C=C1O2 | H37Rv | - | MIC | VERO | BACTEC | >12.5 µg/mL |
| C[C@H]1COc2c(N3CCN(C)CC3)c(F)cc3c(=O)c(C(=O)O)cn1c23 | MDR-TB | - | MIC | - | agar | 16 µg/mL |
| N[C@@H]1CONC1=O | - | - | MIC | - | - | 30 µg/mL |
| Cc1ccn2c(C(=O)NCc3ccc(N4CCN(c5ccc(C(F)(F)F)cc5)CC4)c(F)c3)c(C)nc2c1 | H37Rv | - | MIC90 | - | resazurin | <2 µM |
| Nc1nnc2nc3c4ccccc4c4ccccc4c3nn12 | H37Rv | - | MIC bound | - | BACTEC | ≤12.5 µg/mL |
| NC(=O)c1cnccn1 | KK11-20 | - | MIC | - | - | >200 µg/mL |
| O=C(SCC1CS1)c1ccc(C(=O)SCC2CS2)cc1 | H37Rv | - | MIC | - | - | 3.125 µg/mL |
| Cc1cn2c(C(=O)NCc3cccc(S(F)(F)(F)(F)F)c3)c(C)nc2s1 | H37Rv | - | MIC90 | - | resazurin | <2 µM |
| O=C(N=Nc1c(O)[nH]c2ccc(Br)cc12)c1ccccn1 | H37Ra | - | MIC50 | - | resazurin | >50 µg/mL |
| c1ccc(Nc2cc(Nc3ccccc3)ncn2)cc1 | H37Rv | - | MIC90 | - | resazurin | 500 µM |
| COc1ccc(NC(=O)CSc2nnc(-c3ccc4ncccc4c3)o2)cc1 | H37Rv | - | MIC | - | agar | 25 µg/mL |
| O=C1NC(=S)N/C1=C/c1ccc(-c2ccccc2)cc1 | H37Rv | 6.25 µg/mL | inhibition | - | - | 97% |
| C[N+](C)(C)CC(=O)N/N=C(\C=C\c1ccccc1)CC1OC(=O)c2ccccc21.[Cl-] | H37Rv | 12.5 µg/mL | inhibition | - | BACTEC | -5% |
| O=C(O)c1cn(C2CC2)c2cc(N3CCN(/N=C/C4CCCCC4)CC3)c(F)cc2c1=O | H37Rv | - | MIC90 | - | fluorescence | 0.28 µM |
| CCOC(=O)N1CCN(c2cc3c(O)c4c(O)c(C)c5c(c24)C(=O)[C@@](C)(O/C=C/[C@H](OC)[C@@H](C)[C@@H](OC(C)=O)[C@H](C)[C@H](O)[C@H](C)[C@@H](O)[C@@H](C)/C=C/C=C(/C)C(=O)N3)O5)CC1 | H37Rv | - | MIC | - | - | 0.1 µg/mL |
| Cc1ccn2c(C(=O)NCc3ccc4c(c3)CCO4)c(C(F)(F)F)nc2c1 | H37Rv | - | MIC90 | - | resazurin | <2 µM |
| Cc1c2oc3c(C)ccc(C(=O)NCCC(C)C)c3nc-2c(C(=O)NCCC(C)C)c(N)c1=O | H37Rv | - | MIC bound | - | BACTEC | >12.5 µg/mL |
| O=C(O)c1cn(C2CC2)c2cc(N3CCN(/N=C/c4ccc(Br)cc4)CC3)c(F)cc2c1=O | H37Rv | - | MIC90 | - | fluorescence | 2.8 µM |
| Cc1cc(Br)ccc1Nc1nc(N)nc(N)c1N=O | H37Rv | 12.5 µg/mL | inhibition | - | BACTEC | 78% |
| CSc1ccccc1NC(=O)C1(c2cccs2)CCOCC1 | CDC1551 | - | EC50 | - | turbidity | 200 µM |
| Clc1cc2nn(C3CCCCO3)nc2cc1Cl | H37Rv | 6.25 µg/mL | inhibition | - | BACTEC | 1% |
| CN(c1ccc(F)cc1)N1CCN(c2cc3c(cc2F)c(=O)c(C(=O)O)cn3C2CC2)CC1 | H37Rv | - | MIC90 | - | fluorescence | >50 µM |
| COC(=O)C1=C(C)NC(Nc2cccc(C#N)c2)=NC1c1ccc(Cl)cc1 | MDR-TB | - | MIC | - | agar | 32 µg/mL |
| O=c1c(Br)c(-c2ccccc2)oc2ccccc12 | H37Rv | - | MIC | - | - | >12.5 µg/mL |
| O=C1NC(=S)N/C1=C\c1ccc(OCc2ccc(Cl)cc2)cc1 | H37Rv | - | EC50 | - | - | <6.25 µg/mL |
| COc1ccc(C=NN2C(=O)c3ccccc3C2=O)cc1OC | H37Rv | - | MIC50 | - | resazurin | >50 µg/mL |
| O=C(CSc1nnc(-c2ccc3ncccc3c2)o1)Nc1ccc(Br)cc1 | H37Rv | - | MIC | - | agar | 25 µg/mL |
| COCC(O)CNCCN | H37Rv | - | MIC bound | - | resazurin | >6.25 µg/mL |
| O=C1NC(=S)N/C1=C/c1cccc(OCCc2ccccc2)c1 | H37Rv | 6.25 µg/mL | inhibition | - | - | 93% |
| O=C(CSc1nnc(-c2ccc3ncccc3c2)o1)Nc1nc2ccc(F)cc2s1 | H37Rv | - | MIC | - | agar | 12.5 µg/mL |
| CC(=O)Nc1ccc(NC(=O)C2(c3cccs3)CCOCC2)cc1 | CDC1551 | - | EC50 | - | turbidity | 200 µM |
| SCC1CS1 | H37Rv | - | MIC | - | - | 12.5 µg/mL |
| CO[C@H]1/C=C/O[C@@]2(C)Oc3c(C)c(O)c4c(O)c(cc(N5CCCCC5C)c4c3C2=O)NC(=O)/C(C)=C\C=C\[C@H](C)[C@H](O)[C@@H](C)[C@@H](O)[C@@H](C)[C@H](OC(C)=O)[C@@H]1C | H37Rv | - | MIC | - | - | 0.05 µg/mL |